Laboratory results from publication PMC11411213 (Journal of Molecular Cell Biology, 2024).

Tested on: SARS-CoV-2 Wuhan variant
Type: cell-based

Question: With COc1cc(Nc2ncc(F)c(Nc3ccc4c(n3)NC(=O)C(C)(C)O4)n2)cc(OC)c1OC [Tamatinib] as the compound, how does the “SI (selectivity index)” value read?
Answer: The value was 55.49.
